Pooled drug test results. Numbers come from NIAID ChemDB, via PubChem.

Shared fields: growth or infection tests; species: HIV-1; method: cytopathic effect / MTT; read-out: EC50

Blank or dashed fields: not listed here. ECn is the concentration giving n% inhibition of infection, replication or growth. Neighbouring rows are from separate reports.

SMILES	cell line	strain	mutations	conditions	value
Nc1ncnc2c1ncn2[C@H]1CC[C@H](CO)O1	MT-2	IIIB			>100 µM
CC(C)[C@H](NC(=O)CCc1ccccn1)C(=O)N[C@@H](Cc1ccccc1)C(=O)C(F)(F)[C@H](Cc1ccccc1)NC(=O)[C@H](NC(=O)CCc1ccccn1)C(C)C	MT-4	IIIB			0.05 µM
CCCc1cc(=O)oc2c3c(c4c(c12)OC(C)(C)C=C4)O[C@H](C)[C@@H](C)/C3=N/O	CEM + CEM-SS	IIIB			>15.8 µM
Cc1ccccc1C(=O)N[C@@H](Cc1ccccc1)[C@H](O)CN(CC(C)C)S(=O)(=O)c1ccc2nc(N)sc2c1	CEM	IIIB			0.012 µM
Cc1cn([C@H]2C[C@H](N=[N+]=[N-])[C@@H](CO)O2)c(=O)[nH]c1=O	MT-4				0.0011 µM
C(CCC1CNCCNCCCNCCNC1)CCC1CNCCNCCCNCCNC1	MT-4	IIIB		5 d	0.67 µM
CC(C)[C@H](NC(=O)OCc1ccccn1)C(=O)N[C@@H](Cc1ccccc1)C(=O)C(F)(F)[C@H](Cc1ccccc1)NC(=O)[C@@H](NC(=O)OCc1ccccn1)C(C)C	MT-4	IIIB			0.04 µM
CC(C)CN(C[C@@H](O)[C@H](Cc1ccccc1)NC(=O)O[C@H]1CCOC1)S(=O)(=O)c1ccc(N)cc1	MT-4	IIIB			0.054 µM
C1CNCCNCC(CCCC2CNCCNCCCNCCNC2)CNCCNC1	MT-4	RF		4 d	0.1 µM
Nc1nc(Cl)c2ncn([C@H]3CC[C@H](CO)O3)c2n1	MT-2	IIIB			>100 µM
O=c1[nH]cnc2c1ncn2[C@H]1CC[C@@H](CO)O1	MT-4	RF			7.63 µM
CC(C)=CCN1Cc2cc(Cl)cc3[nH]c(=S)n(c23)C[C@@H]1C	MT-4	HXB2 (RT E138A S162C E169D T200A L214F) Clinical isolate	RT-E138A S162C E169D T200A L214F		1.399 µM
C1CNCCCNCCCNC1	MT-4	IIIB			>85 µM
Cc1cn([C@@H]2C[C@@H](N=[N+]=[N-])[C@H](COP(N)(=O)OC[C@H]3O[C@@H](n4cc(C)c(=O)[nH]c4=O)C[C@@H]3N=[N+]=[N-])O2)c(=O)[nH]c1=O	MT-4	IIIB			0.39 µM
CC(C)CN(C[C@@H](O)[C@H](Cc1ccccc1)NC(=O)[C@@H](C)CS(C)(=O)=O)S(=O)(=O)c1ccc2nc(N)sc2c1	CEM	IIIB			0.084 µM
Cc1cn([C@H]2C[C@H](N=[N+]=[N-])[C@@H](COP(=O)(O)OC[C@H]3O[C@@H](OCCO)[C@@H](O)[C@@H](O)[C@@H]3O)O2)c(=O)[nH]c1=O	CEM-C113 + CEM/C113	BRU		22 d	0.6 µM
Cc1cn([C@H]2C[C@H](N=[N+]=[N-])[C@@H](CO)O2)c(=O)[nH]c1=O	MT-4	IIIB/LAI			0.003 µM
C1CNCCNCC(CCOCCOCCC2CNCCNCCCNCCNC2)CNCCNC1	MT-4	IIIB		5 d	7.5 µM
Nc1ccn([C@H]2CC[C@@H](CO)O2)c(=O)n1	MT-4	IIIB			0.35 µM
Nc1nc2c(ncn2CC2CN2CP(=O)(O)O)c(=O)[nH]1	MT-4	IIIB			>100 µM
Cc1cn([C@H]2C[C@H](N=[N+]=[N-])[C@@H](COP(=O)(OCCSC(=O)C(C)(C)C)OCCSC(=O)C(C)(C)C)O2)c(=O)[nH]c1=O	MT-4	IIIB			0.81 µM
N#C[C@]1(CO)O[C@@H](n2cnc3c(=O)[nH]cnc32)C[C@@H]1O	MT-4	IIIB			0.051 µM
Cc1cn([C@H]2C=C[C@@H](COP(=O)(O)OP(=O)(O)OP(=O)(O)O)O2)c(=O)[nH]c1=O	CEM	LAI			1 µM
Cc1cn([C@H]2C[C@H](N=[N+]=[N-])[C@@H](CO)O2)c(=O)[nH]c1=O	MT-4	IIIB			0.032 µM
Nc1nc(N)c2ncn([C@@H]3CC[C@H](CO)O3)c2n1	MT-2	IIIB			>100 µM
C[C@H](NC(=O)[C@H](CCCN=C(N)N)NC(=O)c1ccc(CNCc2ccccn2)cc1)c1cccc2ccccc12	MT-4	IIIB X4 laboratory isolate			0.0193 µM
Clc1ccc2c(c1)Nc1ccccc1S2	MT-4	IIIB			>500 µg/mL
CC(C)CN(C[C@@H](O)[C@H](Cc1ccccc1)NC(=O)OC1CCOC1)S(=O)(=O)c1ccc2nc(N)sc2c1	CEM	IIIB			0.004 µM
C1CNCCNCCCN(CCCN2CCCNCCNCCCNCC2)CCNC1	MT-4	NL4-3			0.161 µg/mL
C#C[C@@]1(CO)C=C[C@H](n2cc(C)c(=O)[nH]c2=O)O1	MT-2	IIIB			0.5 µM
O=c1[nH]cnc2c1ncn2[C@H]1CC[C@@H](CO)O1	MT-4	IIIB			0.96 µM
O=c1[nH]cnc2c1ncn2[C@H]1CC[C@@H](CO)O1	MT-4	Recombinant wild type			11.2 µM
CCc1c(Sc2ccccc2)n(COCc2ccccc2)c(=O)[nH]c1=O	MT-4	A012D			0.0029 µM
O=C1c2ccccc2C(=O)N1CCCN1c2ccccc2Sc2ccc(Cl)cc21	MT-4	IIIB			>500 µg/mL
CC1(C)S[C@H]([C@H](NC(=O)Cc2ccccn2)C(=O)NCc2ccccc2)N[C@H]1C(=O)NCCNC(=O)[C@@H]1N[C@@H]([C@H](NC(=O)Cc2ccccn2)C(=O)NCc2ccccc2)SC1(C)C	MT-4	RF			10 µM
CCCN(C)C(=O)Oc1nsnc1-c1c(Cl)ccc(OC)c1Cl	MT-4	IIIB			11 µM
CC(C)(C)OC(=O)N[C@@H](Cc1ccccc1)C[C@H](O)[C@H](Cc1ccccc1)NC(=O)c1cc(N)cc(N)c1	MT-4	IIIB			>92 µM
Cc1c(N)cccc1C(=O)N[C@@H](Cc1ccccc1)[C@H](O)CN(CC(C)C)S(=O)(=O)c1ccc2nc(N)sc2c1	CEM	IIIB			0.009 µM
Cc1cn([C@H]2C=C[C@@H](CO)O2)c(=O)[nH]c1=O	MT-2	IIIB			1.4 µM
Nc1ccn([C@H]2CC[C@@H](CO)O2)c(=O)n1	MT-4	IIIB			0.5 µM
CC(C)[C@H](NC(=O)N(C)Cc1ccccn1)C(=O)N[C@@H](Cc1ccccc1)C(=O)C(F)(F)[C@H](Cc1ccccc1)NC(=O)[C@@H](NC(=O)N(C)Cc1ccccn1)C(C)C	MT-4	IIIB			0.035 µM
CS(=O)(=O)NCCCN1c2ccccc2Sc2ccc(Cl)cc21	MT-4	IIIB			>500 µg/mL
CCC(C)Sc1nc(Cc2ccccc2)c(C)c(=O)[nH]1	MT-4	IIIB			0.06 µM
Nc1ccn([C@H]2CC[C@@H](CO)O2)c(=O)n1	MT-2	G910-6 AZT-resistant			~0.2 µM
NCCCN1c2ccccc2Sc2ccc(Cl)cc21	MT-4	IIIB			>20 µg/mL
Cc1cn([C@H]2C[C@H](N=[N+]=[N-])[C@@H](CO)O2)c(=O)[nH]c1=O	CEM + CEM-SS	PM16			0.014 µM
CCCc1cc(=O)oc2c(C(=O)C(C)(C)C(C)O)c(O)c3c(c12)OC(C)(C)C=C3	CEM + CEM-SS	IIIB			>37 µM
Cc1cn(CC2CN2CP(=O)(O)O)c(=O)[nH]c1=O	MT-4	IIIB			>100 µM
Nc1ncnc2c1ncn2CCOCP(=O)(O)O	CEM + CEM-SS				>20 µM
C1CNCCNCC(CCC2CNCCNCCCNCCNC2)CNCCNC1	MT-4	RF		5 d	0.36 µM
CCCN(C)C(=O)Oc1nsnc1-c1c(Cl)ccc(N)c1Cl	MT-4	IIIB			0.006 µM
CC(C)CN([C@H](CO)CCCCNC(=O)[C@@H](NC(=O)c1ccc(N)nc1)C(c1ccccc1)c1ccccc1)S(=O)(=O)c1ccc(N)cc1	MT-4	NL4-3			0.084 µM
Cc1cn([C@H]2CC[C@@H](CO)O2)c(=O)[nH]c1=O	CEM-C113 + CEM/C113	BRU		7 d	<0.2 µM
Cc1ccc(C(=O)N[C@H](C(=O)NCCCC[C@@H](CO)N(CC(C)C)S(=O)(=O)c2ccc(N)cc2)C(c2ccccc2)c2ccccc2)cn1	MT-4	NL4-3			0.024 µM
CN(C)CCCN1c2ccccc2Sc2ccc(Cl)cc21	MT-4	IIIB			>100 µg/mL
CC(C)=CCOc1cc(Nc2nccc3cc[nH]c23)ccc1Cl	MT-2	IIIB			0.09 µM
Nc1nc(N)c2ncn([C@H]3CC[C@H](CO)S3)c2n1	MT-2	IIIB			>100 µM
Cc1cn([C@@H]2O[C@H](CO[Si](C)(C)C(C)(C)C)C3(OS(=O)(=O)C=C3N)[C@H]2O[Si](C)(C)C(C)(C)C)c(=O)n(C)c1=O	MT-4	Recombinant mutant	RT-A98S		0.011 µM
CC(C)[C@H](NC(=O)OCc1ccccc1)C(=O)N[C@@H](Cc1ccccc1)C(=O)C(F)(F)[C@H](Cc1ccccc1)NC(=O)[C@@H](NC(=O)OCc1ccccc1)C(C)C	MT-4	IIIB			>100 µM
CC(C)CN(C[C@@H](O)[C@H](Cc1ccccc1)NC(=O)[C@@H](C)CS(C)(=O)=O)S(=O)(=O)c1ccc2ncsc2c1	CEM	IIIB			0.022 µM
CC(=O)c1ccc(C)cc1NC(C(N)=O)c1c(Cl)cccc1Cl	PBMC	IIIB			0.122 µM
CC(C)CN(C[C@@H](O)[C@H](Cc1ccccc1)NC(=O)OC1CCOC1)S(=O)(=O)c1ccc2ncsc2c1	CEM	IIIB			0.009 µM
CC(C)(C)OC(=O)N[C@@H](Cc1ccccc1)C[C@H](O)[C@H](Cc1ccccc1)NC(=O)c1ccc(N)c(O)c1	MT-4	IIIB			>11 µM
O=C(O)c1cn(C2CC2)c2c(OC(F)F)c(N3CCN(c4ncccn4)CC3)c(F)cc2c1=O	MT-4	IIIB			1.7 µM

Repeating the final 6 entries:

SMILES,cell line,strain,mutations,conditions,value
CC(C)[C@H](NC(=O)OCc1ccccc1)C(=O)N[C@@H](Cc1ccccc1)C(=O)C(F)(F)[C@H](Cc1ccccc1)NC(=O)[C@@H](NC(=O)OCc1ccccc1)C(C)C,MT-4,IIIB,,,>100 µM
CC(C)CN(C[C@@H](O)[C@H](Cc1ccccc1)NC(=O)[C@@H](C)CS(C)(=O)=O)S(=O)(=O)c1ccc2ncsc2c1,CEM,IIIB,,,0.022 µM
CC(=O)c1ccc(C)cc1NC(C(N)=O)c1c(Cl)cccc1Cl,PBMC,IIIB,,,0.122 µM
CC(C)CN(C[C@@H](O)[C@H](Cc1ccccc1)NC(=O)OC1CCOC1)S(=O)(=O)c1ccc2ncsc2c1,CEM,IIIB,,,0.009 µM
CC(C)(C)OC(=O)N[C@@H](Cc1ccccc1)C[C@H](O)[C@H](Cc1ccccc1)NC(=O)c1ccc(N)c(O)c1,MT-4,IIIB,,,>11 µM
O=C(O)c1cn(C2CC2)c2c(OC(F)F)c(N3CCN(c4ncccn4)CC3)c(F)cc2c1=O,MT-4,IIIB,,,1.7 µM